Values of other authors as cited in publication PMC8611036, “An integrated method for optimized identification of effective natural inhibitors against SARS-CoV-2 3CLpro” (Scientific Reports, 2021).
Like-named read-outs stand apart in the source and are kept apart here.

Molecular target: SARS-CoV-2 3CLpro (Severe acute respiratory syndrome coronavirus 2, UniProt P0DTD1)
Conditions: cited from earlier work; for IC50: unit not printed (pIC50 corresponds to µM)
[1] = test set (SARS-CoV-2 3CLpro inhibitors), collected from literature
[2] = from literature IC50, ref Zhu, Wei et al. ACS pharmacology & translational science vol. 3,5 (2020): 1008-1016
[3] = ref Zhu, Wei et al. ACS pharmacology & translational science vol. 3,5 (2020): 1008-1016
[4] = from literature IC50, ref Su, Hai-Xia et al. Acta pharmacologica Sinica vol. 41,9 (2020): 1167-1177
[5] = ref Su, Hai-Xia et al. Acta pharmacologica Sinica vol. 41,9 (2020): 1167-1177

SMILES | pIC50 [1] | pIC50 [2] | IC50 [3] | further results
O=c1c(O)c(-c2ccc(O)c(O)c2)oc2cc(O)c(O)c(O)c12 | 5.907 | – | – | pIC50 (from literature IC50, ref Liu, Hong-Bo et al. bioRxiv 2020.04.10.035824): 5.907
O=C1C(SCCO)=C(SCCO)C(=O)c2ccccc21 | 4.746 | 4.746 | – | –
CCCCCCCCCCCCCCCc1cccc(O)c1C(=O)O | 4.957 | 4.957 | 11 µM | –
CC#C[C@@H](CC(=O)O)c1ccc(OCc2cccc(-c3ccc(C(F)(F)F)cc3)c2)cc1 | – | 4.617 | 24.2 µM | –
CC1(C)CCC2=C(O1)c1ccccc1C(=O)C2=O | 4.875 | 4.875 | 13.3 µM | –
COCCn1c2c([n+](Cc3cnccn3)c1C)C(=O)c1ccccc1C2=O | – | – | – | pIC50 (from literature IC50, ref Zhu, Wei et al. ACS pharmacology & translational science vol. 3,5 (2020): 1008-1016, tested form: Br): 4.866; pIC50 (test set (SARS-CoV-2 3CLpro inhibitors), collected from literature, tested form: Br): 4.866
CC(NC(=O)[C@H](Cc1ccccc1)NC(=O)OCc1ccccc1)C(=O)CF (stereo partly drawn) | – | 4.943 | 11.4 µM | –
CC1OC(OCC2OC(OCCc3ccc(O)c(O)c3)C(O)C(OC(=O)C=Cc3ccc(O)c(O)c3)C2O)C(O)C(O)C1O (single isomer, unassigned) [CMP64] | – | – | – | pIC50 [4]: 5.233; IC50 [5]: 5.85 µM
O=C1c2ccccc2-[n+]2ccc3c([nH]c4ccccc43)c21 | – | – | – | pIC50 (from literature IC50, ref Zhu, Wei et al. ACS pharmacology & translational science vol. 3,5 (2020): 1008-1016, tested form: Cl): 5.002; IC50 (ref Zhu, Wei et al. ACS pharmacology & translational science vol. 3,5 (2020): 1008-1016, tested form: Cl): 9.96 µM
CC1OC(OC2C(O)C(OCCc3ccc(O)c(O)c3)OC(COC3OCC(O)(CO)C3O)C2OC(=O)C=Cc2ccc(O)c(O)c2)C(O)C(O)C1O (stereo not drawn) | – | – | – | pIC50 [4]: 5.541; IC50 [5]: 2.88 µM
O=C[C@H](C[C@@H]1CCNC1=O)NC(=O)[C@H](Cc1cccc(F)c1)NC(=O)c1cc2ccccc2[nH]1 (single isomer, unassigned) | 7.398 | – | – | pIC50 (from literature IC50, ref Ullrich, Sven, and Christoph Nitsche. Bioorganic & medicinal chemistry letters vol. 30,17 (2020): 127377): 7.398; IC50 (ref Ullrich, Sven, and Christoph Nitsche. Bioorganic & medicinal chemistry letters vol. 30,17 (2020): 127377): 0.04 µM
CC1OC(OCC2OC(OCCc3ccc(O)c(O)c3)C(O)C(OC(=O)C=Cc3ccc(O)c(O)c3)C2O)C(O)C(O)C1O (single isomer, unassigned) [CMP63] | – | – | – | pIC50 [4]: 5.262; IC50 [5]: 5.47 µM
NS(=O)(=O)c1cccc2c1C(=O)c1cccc(O)c1C2=O | – | 5.007 | 9.84 µM | –
CCCCCCCCCCCCCCCCC(C(=O)O)C(O)(CC(=O)O)C(=O)O (stereo not drawn) | – | 4.628 | 23.5 µM | –
COc1ccc2cc(-c3cc(-c4cc(Cl)cc(Cl)c4)nn3[C@@H](C)c3ccc(C(=O)NCCC(=O)O)cc3)ccc2c1 | – | 4.614 | 24.3 µM | –
